Pooled drug test results. Numbers come from NIAID ChemDB, via PubChem.

Shared fields: tests in culture; species: HIV-2; measure: EC50

Blank or dashed fields: not listed here. ECn is the concentration giving n% inhibition of infection, replication or growth. Rows are shuffled and stem from different studies.

smiles,read by,strain or isolate,cell line,result
Cn1c(=O)sc2cc(C(=O)c3ccc(Cl)c(Cl)c3)ccc21,syncytia,ROD,CEM,>8 µg/mL
Nc1sccc1S(=O)(=O)c1ccc(Cl)cc1,cytopathic effect / MTT,ROD,CEM + CEM/O,>20 µg/mL
Cc1ccc(C(C)C)c2oc(=O)c(C(=O)/C=C/c3cccc(Oc4ccccc4)c3)c(O)c12,virus yield,ROD,MT-4,>9.4 µg/mL
CC(C)CCC[C@@H](COS(=O)(=O)[O-])[C@H]1CCC2C3CC=C4C[C@H](O)C(OS(=O)(=O)[O-])C[C@]4(C)C3CC[C@@]21C.[Na+].[Na+],cytopathic effect / XTT,CLB20,CEM + CEM-SS,>100 µM
CCCCCCCCCCCCCCC(=O)Oc1ccc(COP(=O)(Oc2ccc(OC(=O)CCCC(=O)OCCOCCOCCOC)cc2)OP(=O)(O)OP(=O)(O)OC[C@@H]2C=C[C@H](n3cc(C)c(=O)[nH]c3=O)O2)cc1,syncytia / visual reading,ROD,CEM,0.65 µM
Cc1cn([C@@H]2O[C@@H]3CN[C@@]4(C(N)=O)CS(=O)(=O)O[C@@]34[C@H]2O[Si](C)(C)C(C)(C)C)c(=O)[nH]c1=O,,ROD,MT-4,>125 µM
C#CCn1cc(F)c(=O)[nH]c1=O,cytopathic effect,ROD,MT-4,>100 µg/mL
Nn1cc(C(=O)O)c(=O)c2ccc(N3CCN(c4cccc(C(F)(F)F)c4)CC3)cc21,MTT,ROD,MT-4,>0.69 µM
Cc1ccc(S(=O)(=O)c2ccsc2N)cc1,cytopathic effect / MTT,ROD,CEM + CEM/O,>20 µg/mL
O=c1[nH]c(=O)n([C@H]2C=C[C@@H](CO)O2)cc1CO,RT activity,D194,PBMC,0.2 µM
Cc1cn(C2OC(CO[Si](C)(C)C(C)(C)C)C3(OS(=O)(=O)C=C3N)C2O[Si](C)(C)C(C)(C)C)c(=O)n(CCCNC(=O)c2ccc(N=[N+]=[N-])cc2O)c1=O,trypan blue,ROD,MT-4,>50 µM
CCCCCO[C@]12CS(=O)(=O)O[C@@]13[C@@H](CN2)O[C@@H](n1cc(C)c(=O)[nH]c1=O)[C@@H]3O,,ROD,CEM,>250 µM
CCOCc1cn([C@H]2C=C[C@@H](CO)O2)c(=O)[nH]c1=O,RT activity,D194,PBMC,4.7 µM
CC1(C)[C@@H](CCO)C[C@H]1n1cnc2c(N)nc(N)nc21,cytopathic effect,,CEM,>20 µg/mL
C#CCn1ccc(=O)[nH]c1=O,cytopathic effect,ROD,MT-4,>100 µg/mL
CCCc1cc(=O)oc2c3c(c4c(c12)OC(C)(C)CC4)O[C@@H](C)[C@H](C)[C@@H]3O,XTT,ROD,CEM + CEM-SS,>10 µM
CC(C)CN(C[C@@H](O)[C@H](Cc1ccccc1)NC(=O)O[C@H]1CO[C@H]2OCC[C@H]21)S(=O)(=O)c1ccc2nc(NC3CCN(C4CCCC4)CC3)sc2c1,reporter gene,ROD,MT-4,2.7 nM
CCCCCCCCCCCCCCC(=O)Oc1ccc(OP(=O)(OCc2ccc(OC(=O)CCCC)cc2)OP(=O)(O)OP(=O)(O)OC[C@@H]2C=C[C@H](n3cc(C)c(=O)[nH]c3=O)O2)cc1,syncytia / visual reading,ROD,CEM,0.32 µM
Cc1cn([C@@H]2O[C@@H]3CN[C@@]4(OCCO)CS(=O)(=O)O[C@@]34[C@H]2O[Si](C)(C)C(C)(C)C)c(=O)[nH]c1=O,,ROD,CEM,>25 µM
O=c1[nH]c(=O)n(Cc2cn(COCCO)nn2)cc1F,cytopathic effect,ROD,MT-4,>100 µg/mL
Nn1cc(C(=O)O)c(=O)c2ccc(N3CCN(c4nc5ccccc5s4)CC3)cc21,MTT,ROD,MT-4,2.84 µM
CC(C)CN(C[C@@H](O)[C@H](Cc1ccccc1)NC(=O)O[C@H]1CO[C@H]2OCC[C@H]21)S(=O)(=O)c1ccc2nc(NC3CCN(C4CCCC4)CC3)sc2c1,reporter gene,ROD,MT-4,0.0027 µM
O=c1ccn(Cc2cn(COCCO)nn2)c(=O)[nH]1,cytopathic effect,ROD,MT-4,>100 µg/mL
O=C(c1cccc(F)c1)c1ccc2c(c1)sc(=O)n2Cc1ccccc1,syncytia,ROD,CEM,>1.6 µg/mL
Cc1ccc(C(C)C)c2oc(=O)c(C(=O)/C=C/c3ccc(N(C)C)cc3)c(O)c12,virus yield,ROD,MT-4,>106 µg/mL
CN[C@@H]1[C@H](O[C@@H]2OC[C@@H](O)[C@H](O)[C@H]2O)[C@@H](O)[C@H](O[C@H]2c3cc(C)c(C(=O)N[C@H](C)C(=O)O)c(O)c3-c3c(cc4c(c3O)C(=O)c3cc(OC)cc(O)c3C4=O)[C@@H]2O)O[C@@H]1C,p24 / ELISA,ROD,CEM,1.8 µM
O=C(NCCc1ccccc1)Nc1nc(C(F)(F)F)cs1,RT activity,,MT-4,<1 µg/mL
Cc1cn(C2OC(CO[Si](C)(C)C(C)(C)C)C3(OS(=O)(=O)C=C3N)C2O[Si](C)(C)C(C)(C)C)c(=O)n(CCCNC(=O)c2ccc(C(=O)c3ccccc3)cc2)c1=O,trypan blue,ROD,MT-4,>50 µM
Cc1cc(C)c(CS(=O)c2cccc[n+]2[O-])c(C)c1,β-galactosidase,ROD,MAGI,20 µg/mL
CN(C)c1cccc(C(=O)c2ccc3[nH]c(=O)oc3c2)c1,syncytia,ROD,CEM,>8 µg/mL
Cc1nc(CCCCCCC(=O)c2ccccc2)n2nc(NCCCCCCNCc3cn([C@H]4C=C[C@@H](CO)O4)c(=O)[nH]c3=O)ccc12,RT activity,D194,PBMC,0.1 µM
CCCCN1C(=O)[C@@H](Cc2ccccc2)NC1=S,RT activity,,MT-4,<100 µg/mL
Cc1cn([C@@H]2O[C@@H]3CN[C@@]4(O)CS(=O)(=O)O[C@@]34[C@H]2O[Si](C)(C)C(C)(C)C)c(=O)[nH]c1=O,,ROD,MT-4,>250 µM
Cc1nc(CCCCCCC(=O)c2ccccc2)n2nc(NCCCCCCCCN)ccc12,RT activity,D194,PBMC,>10 µM
CC(C)CS[C@H]1C[C@@H](n2cnc3c(N)ncnc32)[C@H](O)[C@@H]1O,cytopathic effect / syncytia / trypan blue,ROD,CEM,150 µg/mL
CC(C)N(C[C@H](O)[C@H](Cc1ccccc1)NC(=O)C(CC(N)=O)NC(=O)C1C=Cc2ccccc2N1)NC(=O)OC(C)(C)C,cytopathic effect / RT activity,ROD,MT-2,0.004 µM
CC1(C)[C@@H](CCO)C[C@H]1n1nnc2c(=O)[nH]c(N)nc21,cytopathic effect,,MT-4,>250 µg/mL
CCc1c(C(=O)c2cc(C)cc(C)c2)n(CC2CC2)c(=O)[nH]c1=O,XTT,ROD,CEM,0.6 µM
Nc1sccc1S(=O)(=O)c1ccc(F)cc1,cytopathic effect / MTT,ROD,CEM + CEM/O,>8 µg/mL
COC(=O)[C@H](Cc1ccccc1)NP(=O)(OC[C@@H]1C=C[C@H](n2cc(C)c(=O)[nH]c2=O)O1)Oc1ccccc1,cytopathic effect / microscopy,,CEM + CEM/0,1.4 µM
Cn1c2ccccc2c2c1cc(C#N)c(=O)n2-c1ccc([N+](=O)[O-])cc1,reporter gene,,MT-4,~0.3 µM
CC(=O)Nc1nc2c(ncn2Cc2cn(COCCO)nn2)c(=O)[nH]1,cytopathic effect,ROD,MT-4,>100 µg/mL
CCCCO[C@]12CS(=O)(=O)O[C@@]13C(CN2)O[C@@H](n1cc(C)c(=O)[nH]c1=O)[C@@H]3O[Si](C)(C)C(C)(C)C,,ROD,CEM,>10 µM
Nc1nc2c(ccn2[C@H]2C=C[C@@H](CO)C2)c(=O)[nH]1,RT activity,D194,PBMC,6 µM
NS(=O)(=O)c1ccc(NC(=O)c2ccccc2SSc2ccccc2C(=O)Nc2ccc(S(N)(=O)=O)cc2)cc1,XTT,,CEM + CEM-SS,1.6 µM
NS(=O)(=O)c1ccc(NC(=O)c2ccccc2SSc2ccccc2C(=O)Nc2ccc(S(N)(=O)=O)cc2)cc1,cytopathic effect / XTT,ROD,CEM + CEM-SS,1.6 µM
CC(C)CCC[C@@H](COS(=O)(=O)[O-])[C@H]1CCC2C3CC[C@H]4C[C@H](OS(=O)(=O)[O-])CC[C@]4(C)C3CC[C@@]21C.[Na+].[Na+],cytopathic effect / XTT,CLB20,CEM + CEM-SS,63 µM
CC[C@H](C)[C@H](NC(=O)c1ccccc1SSc1ccccc1C(=O)N[C@H](C(=O)O)[C@@H](C)CC)C(=O)O,XTT,,CEM,4.7 µM
Cc1cc2oc(=O)c(C(=O)/C=C/c3ccccc3)c(O)c2cc1Cl,virus yield,ROD,MT-4,>8.56 µg/mL
COC(=O)CCNP(=O)(OC[C@@H]1C=C[C@H](n2cc(C)c(=O)[nH]c2=O)O1)Oc1ccccc1,cytopathic effect / microscopy,,CEM + CEM TK-,7 µM
N#Cc1csc(NC(=O)NCCc2ccccc2)n1,RT activity,,MT-4,<0.1 µg/mL
C=Cn1cc(C(=O)O)c(=O)c2ccc(N3CCN(c4ccccn4)CC3)cc21,MTT,ROD,MT-4,>0.31 µM
O=C1Nc2sccc2S(=O)(=O)c2ccccc21,cytopathic effect / MTT,ROD,CEM + CEM/O,>200 µg/mL
Cc1cc2oc(=O)c(C(=O)/C=C/c3ccccc3[N+](=O)[O-])c(O)c2cc1Cl,virus yield,ROD,MT-4,>10.1 µg/mL
CC(=O)Nc1sccc1S(=O)(=O)c1ccc(Cl)cc1,cytopathic effect / MTT,ROD,CEM + CEM/O,>40 µg/mL
CCS[C@]12CS(=O)(=O)O[C@@]13[C@@H](CN2)O[C@@H](n1cc(C)c(=O)[nH]c1=O)[C@@H]3O[Si](C)(C)C(C)(C)C,,ROD,MT-4,>50 µM
CC(C)[C@H](CC[C@@H](C)[C@H]1C[C@H](OS(=O)(=O)O)[C@H]2[C@@H]3[C@H](O)[C@H](O)[C@H]4C[C@@H](O)CC[C@]4(C)[C@H]3CC[C@@]21C)OC1OC[C@@H](O)[C@H](O)[C@@H]1O,cytopathic effect / XTT,CLB20,CEM + CEM-SS,>100 µM
Cc1ccc(S(=O)(=O)c2ccsc2NC(=O)c2ccccc2)cc1,cytopathic effect / MTT,ROD,CEM + CEM/O,>40 µg/mL
CC1(C)[C@@H](CCO)C[C@H]1n1cnc2c(=O)[nH]cnc21,cytopathic effect,,CEM,>100 µg/mL
COc1ccc(/C=C/C(=O)c2c(O)c3cc(Cl)c(C)cc3oc2=O)cc1,virus yield,ROD,MT-4,>45.6 µg/mL
COC(=O)CC(=O)Nc1sccc1S(=O)(=O)c1ccc(C)cc1,cytopathic effect / MTT,ROD,CEM + CEM/O,>8 µg/mL
CC(C)=CCOc1cc(NC(=S)c2ccsc2C)ccc1Cl,p24,ROD,CEM + CEM-SS,>2 µM
Nc1ncnc2c1ccn2[C@H]1C=C[C@@H](CO)C1,RT activity,D205,PBMC,0.35 µM
CCCCCCCCCCCCCCC(=O)Oc1ccc(OP(=O)(OCc2ccc(OC(=O)CC(C)C)cc2)OP(=O)(O)OP(=O)(O)OC[C@@H]2C=C[C@H](n3cc(C)c(=O)[nH]c3=O)O2)cc1,syncytia / visual reading,ROD,CEM,0.23 µM
Cc1ccc(C(C)C)c2oc(=O)c(C(=O)/C=C/c3cccc([N+](=O)[O-])c3)c(O)c12,virus yield,ROD,MT-4,>13.1 µg/mL
CCCCCCCCCCCCCCCCCCOP(=O)(OCCCC)OP(=O)(O)OP(=O)(O)OP(=O)(O)OC[C@@H]1C=C[C@H](n2cc(C)c(=O)[nH]c2=O)O1,syncytia / visual reading,ROD,CD4+ T-cell,0.041 µM
Cc1nc(CCCCCCC(=O)c2ccccc2)n2nc(Cl)ccc12,RT activity,D194,PBMC,>10 µM
Cc1cn(C2OC(CO[Si](C)(C)C(C)(C)C)C3(OS(=O)(=O)C=C3N)C2O[Si](C)(C)C(C)(C)C)c(=O)n(CC(=O)N(CCCl)CCCl)c1=O,trypan blue,ROD,MT-4,>125 µM
Cc1cn([C@@H]2O[C@@H]3CN[C@@]4(OCC5CCOC5)CS(=O)(=O)O[C@@]34[C@H]2O)c(=O)[nH]c1=O,,ROD,CEM,>250 µM
Cc1nc(CCCCCCC(=O)c2ccccc2)n2nc(NCCCCCCCCCCCCN)ccc12,RT activity,D194,PBMC,>10 µM
COc1ccc2[nH]c(=O)c(CN(Cc3cccnc3)S(=O)(=O)c3cccc4nsnc34)cc2c1,p24 / ELISA,ROD,MOLT-4,0.1105 µM
C=C(C)OC(=O)N1c2cc(Cl)ccc2NC(=S)C1(C)C,p24,ROD,PBL,>100 µM
Nn1cc(C(=O)O)c(=O)c2ccc(N3CCN(c4ccccn4)CC3)cc21,MTT,ROD,MT-4,3.01 µM
CC1(C)[C@@H](CCO)C[C@H]1n1nnc2c(=O)[nH]cnc21,cytopathic effect,,MT-4,>100 µg/mL